Share of PSTVd loop 15 variants by leaf site

Reference: Wu et al. 2024, doi:10.1371/journal.ppat.1012142.

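Three N. benthamiana plants were inoculated with the whole mutant pool. Progeny were sequenced from the inoculated region (day 5), the margin of the inoculated leaf (day 10) and systemic leaves (day 12).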

PSTVd intermediate strain, loop 15: wild type GGAAACCGCUACUAC, pool pattern GGAAACCGNNNNNNC; upper and lower strand joined, each 5' to 3', the first 7 letters being the upper strand, closing pairs included.

Numbers give reads per thousand; 0 = not seen among the reads, higher = more abundant. Each value is the mean of three plants. "Pool" is the share in the plasmid pool used as inoculum, on the same scale. The inoculated region was read from the minus strand, the other sites from the plus strand. IR is the inoculated region, LM the leaf margin, Sys the systemic leaves. The authors trace changes outside the varied positions to PCR and sequencing errors or to mutation in the plant; presence does not show that a variant is infectious alone. Wild type was 33.9 per thousand in the pool and the most common sequence in every sample (inoculated region 202, 200, 159; leaf margin 724, 746, 710; systemic leaves 856, 883, 880). With 43,870-66,106 reads a sample, very low values are single reads.

| sequence | pool | IR | LM | Sys |
|---|---|---|---|---|
| GGAAACCGAACUUGC | 0.240 | 0.131 | 0.0200 | 0 |
| GGAAACCGCCAGUAC | 0.192 | 0.360 | 0.100 | 0.0107 |
| GGAAACCGAGGAAAC | 0.352 | 0.0739 | 0.00668 | 0.00537 |
| GGAAACCGCGCCCGC | 0.256 | 0.0989 | 0.0182 | 0 |
| GGAAACCGUCAUCAC | 0.240 | 0.258 | 0.113 | 0.0615 |
| GGAAACCGCGCCGAC | 0.288 | 0.0614 | 0.00742 | 0 |
| GGAAACCGGUCUCAC | 0.240 | 0.0924 | 0.00539 | 0 |
| GGAAACCGUAAGCUC | 0.224 | 0.328 | 0.115 | 0.0107 |
| GGAAACCGCGUAGGC | 0.240 | 0.103 | 0 | 0 |
| GGAAACCGAAAUUCC | 0.288 | 0.100 | 0.00668 | 0.00537 |
| GGAAACCGAGGAUCC | 0.256 | 0.0785 | 0.00539 | 0 |
| GGAAACCGAUCAGGC | 0.256 | 0.0505 | 0.00668 | 0.00537 |
| GGAAACCGGACGCAC | 0.272 | 0.148 | 0.0128 | 0 |
| GGAAACCGAGCCUUC | 0.304 | 0.0668 | 0.00539 | 0 |
| GGAAACCGACCCAAC | 0.160 | 0.0752 | 0.00742 | 0 |
| GGAAACCGGCCAAAC | 0.144 | 0.0904 | 0.0187 | 0 |
| GGAAACCGAACAGUC | 0.208 | 0.0920 | 0.0134 | 0 |
| GGAAACCGUUCCAUC | 0.112 | 0.285 | 0.0108 | 0 |
| GGAAACCGCGGUCCC | 0.160 | 0.0956 | 0 | 0 |
| GGAAACCGAAUGCUC | 0.176 | 0.119 | 0.0187 | 0.00537 |
| GGAAACCGCAAGGUC | 0.208 | 0.315 | 0.0477 | 0.0104 |
| GGAAACCGACUGGUC | 0.256 | 0.0795 | 0.0121 | 0.00760 |
| GGAAACCGGGUCGCC | 0.224 | 0.0607 | 0 | 0 |
| GGAAACCGCUUGUGC | 0.224 | 0.357 | 0.0713 | 0.0107 |
| GGAAACCGCAAUAAC | 0.240 | 0.116 | 0.0195 | 0 |
| GGAAACCGCAAUUGC | 0.160 | 0.0920 | 0.0215 | 0 |
| GGAAACCGCUUCAAC | 0.176 | 0.116 | 0.0208 | 0.0107 |
| GGAAACCGACGUGGC | 0.304 | 0.219 | 0 | 0.00537 |
| GGAAACCGUCUAAAC | 0.272 | 0.0740 | 0.703 | 0 |
| GGAAACCGCCGAGCC | 0.256 | 0.0678 | 0.00668 | 0 |
| GGAAACCGCGCUUUC | 0.176 | 0.254 | 0.107 | 0.0161 |
| GGAAACCGUCUCAAC | 0.192 | 0.0624 | 0 | 0 |
| GGAAACCGCCGUAGC | 0.160 | 0.100 | 0.0141 | 0 |
| GGAAACCGCGAUAGC | 0.304 | 0.185 | 0 | 0 |
| GGAAACCGGCCCUGC | 0.208 | 0.118 | 0.00668 | 0 |
| GGAAACCGCACGUGC | 0.176 | 0.0994 | 0.0328 | 0 |
| GGAAACCGGCGCUAC | 0.256 | 0.116 | 0.0134 | 0 |
| GGAAACCGGACGAAC | 0.304 | 0.0869 | 0.00742 | 0 |
| GGAAACCGUUCAGCC | 0.288 | 0.102 | 0 | 0.0130 |
| GGAAACCGAUAACCC | 0.336 | 0.0850 | 0.0187 | 0.0130 |
| GGAAACCGAGGACAC | 0.208 | 0.103 | 0.0208 | 0.0161 |
| GGAAACCGGGUGACC | 0.256 | 0.0837 | 0.00668 | 0 |
| GGAAACCGAAGAAUC | 0.192 | 0.124 | 0.0121 | 0 |
| GGAAACCGAGGACGC | 0.240 | 0.121 | 0.0141 | 0 |
| GGAAACCGGGAGUUC | 0.224 | 0.395 | 0.0833 | 0.0822 |
| GGAAACCGUGCUCGC | 0.160 | 0.125 | 0.00742 | 0 |
| GGAAACCGCGCUGAC | 0.304 | 0.0828 | 0.00668 | 0 |
| GGAAACCGGUCUUUC | 0.256 | 0.193 | 0.00742 | 0 |
| GGAAACCGCCAUAUC | 0.144 | 0.280 | 0.131 | 0.0215 |
| GGAAACCGCUCAAAC | 0.192 | 0.107 | 0.0148 | 0 |
| GGAAACCGGACUUAC | 0.144 | 0.101 | 0.00539 | 0 |
| GGAAACCGUACCGGC | 0.256 | 0.0828 | 0.00668 | 0.00537 |
| GGAAACCGAGGGCGC | 0.224 | 0.0777 | 0.0187 | 0.00537 |
| GGAAACCGCAAAUCC | 0.176 | 0.0805 | 0 | 0 |
| GGAAACCGGAACCGC | 0.240 | 0.0751 | 0.00742 | 0 |
| GGAAACCGCUGUGUC | 0.336 | 0.0730 | 0.00668 | 0 |
| GGAAACCGAAACCCC | 0.208 | 0.106 | 0.00539 | 0 |
| GGAAACCGGAACUAC | 0.192 | 0.276 | 0.131 | 0.0439 |
| GGAAACCGGUCUCUC | 0.192 | 0.109 | 0.0134 | 0 |
| GGAAACCGCGGGCAC | 0.208 | 0.119 | 0 | 0.0107 |
| GGAAACCGUGAUGUC | 0.336 | 0.217 | 0.00668 | 0.00537 |
| GGAAACCGAACGAGC | 0.320 | 0.0840 | 0 | 0 |
| GGAAACCGGCGCACC | 0.256 | 0.0625 | 0.00668 | 0 |
| GGAAACCGUUGAUGC | 0.160 | 0.0922 | 0.0121 | 0 |

A selection of 9 entries from above:

For GGAAACCGUUCCAUC (pool 0.112) the result was IR 0.285; LM 0.0108; Sys 0.
For GGAAACCGCGGUCCC (pool 0.160) the result was IR 0.0956; LM 0; Sys 0.
For GGAAACCGCAAGGUC (pool 0.208) the result was IR 0.315; LM 0.0477; Sys 0.0104.
For GGAAACCGGGAGUUC (pool 0.224) the result was IR 0.395; LM 0.0833; Sys 0.0822.
For GGAAACCGUUGAUGC (pool 0.160) the result was IR 0.0922; LM 0.0121; Sys 0.
For GGAAACCGAGGGCGC (pool 0.224) the result was IR 0.0777; LM 0.0187; Sys 0.00537.
For GGAAACCGAGCCUUC (pool 0.304) the result was IR 0.0668; LM 0.00539; Sys 0.
For GGAAACCGAGGACGC (pool 0.240) the result was IR 0.121; LM 0.0141; Sys 0.
For GGAAACCGCUCAAAC (pool 0.192) the result was IR 0.107; LM 0.0148; Sys 0.